The numbers were not newly measured in publication PMC10343017, which cites them from elsewhere.

Chains of the proteins cited; added tags and fusions are not shown. Residues count along the entry.
UniProt Q9H6X2, 33-321: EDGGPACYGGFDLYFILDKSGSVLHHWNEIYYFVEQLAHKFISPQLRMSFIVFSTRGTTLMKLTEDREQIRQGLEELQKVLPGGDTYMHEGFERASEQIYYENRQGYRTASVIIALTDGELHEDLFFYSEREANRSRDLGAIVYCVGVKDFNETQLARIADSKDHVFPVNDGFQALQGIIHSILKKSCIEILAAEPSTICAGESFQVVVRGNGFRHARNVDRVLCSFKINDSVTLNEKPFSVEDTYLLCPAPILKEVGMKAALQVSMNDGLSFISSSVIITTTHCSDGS

In this data set the target is TEM8 (Homo sapiens) (UniProt Q9H6X2).

Take “protective antigen (from UniProt P13423)”: the dissociation constant (Kd) is 1100 nM.

In general, Kd refers to the constant that tells how readily two partners part at equilibrium.
